Test results taken from patent US20240059757A1 (VIR BIOTECHNOLOGY, published 2024).

B1: S2X227 (antibody, V domains shown)
VH: EVQLVQSGAEVKKPGASVKVSCKASGYTFTSYYMHWVRQAPGQGLEWMGIINPGGVSTTYAHYAQKFQGRVTMTRDTSTSTVYMELSSLRSEDTAVYYCARSIAVFWGDAFDIWGQGTMVTVSS
VL: DIQMTQSPDSLAVSLGERATINCKSSQSVLYSSNNKNYLAWYQQKPGQPPKLLIYWASTRESGVPDRFSGSGSGTDFTLTISSLQAEDVAVYYCQQYSSSPLTFGGGTKVEIK
B2: S2D22 (antibody, V domains shown)
VH: EVHLVESGGGLVQPGGSLKLSCAASGFTFSGSAMHWVRQASGKGLEWVGRIRTKANTYATAYAASVKGRFTISRDDSKNTAYLQMNSLKTEDTAVYYCTRPAPYDFLSDYYTGEQLDYWGQGTLVTVSS
VL: QSVLTQPPSVSGAPGQRVTISCTGSSSNIGAGYDVHWYQQLPGAAPKLLIYGNSNRPSGVPDRFSGSKSGTSASLAITGLQAEDEADYYCQSYDSSLSGPEVFGTGTKVTVL

Experiments:
SARS-CoV Spike protein = SARS-CoV Spike protein (SARS-CoV, UniProt P59594 14-1255); test: ELISA, panel 'Spike SARS1' (SARS-CoV Spike protein)
PANG/GX spike protein = PANG/GX spike protein (PANG/GX); test: cell-based or functional assay
PANG/GD spike protein = PANG/GD spike protein (PANG/GD); test: cell-based or functional assay
BtKY72 spike protein RBD = BtKY72 spike protein RBD (BtKY72); test: ELISA
[1] = molecular target: PANG/GX spike protein RBD (PANG/GX); test: ELISA
ZC45 spike protein RBD [2] = molecular target: ZC45 spike protein RBD (ZC45); test: ELISA
[3] = molecular target: PANG/GD spike protein RBD (PANG/GD); test: ELISA
RaTG13 spike protein RBD = RaTG13 spike protein RBD (RaTG13); test: ELISA
WIV1 spike protein RBD = WIV1 spike protein RBD (WIV1); test: BLI
ZC45 spike protein RBD [4] = molecular target: ZC45 spike protein RBD (ZC45); test: BLI

Binder | binding result (SARS-CoV Spike protein) | neutralization IC50 (PANG/GX spike protein) | neutralization IC50 (PANG/GD spike protein) | EC50 (BtKY72 spike protein RBD) | EC50 [1] | EC50 (ZC45 spike protein RBD [2]) | EC50 [3] | EC50 (RaTG13 spike protein RBD) | Kd (WIV1 spike protein RBD) | Kd (ZC45 spike protein RBD [4])
B1 | no binding (tested: about 5000 ng/ml) |  |  |  |  |  |  |  |  | 
B2 |  | 0.284 µg/mL | 0.0955 µg/mL | 0.0529 µg/mL | 0.0432 µg/mL | 0.0485 µg/mL | 0.0491 µg/mL | 0.0451 µg/mL | 40 nM | 41.4 nM
